Anti-infective test results gathered from many reports (values: NIAID ChemDB through PubChem).

Shared fields: whole-cell or culture tests; agent: HIV-1; read-out: fold resistance

Fold resistance: result on the changed form divided by that on wild type. Two numbers with a dash give a range or band. Blank or dashed fields: not listed here. Lines come from different laboratories, so protocols vary.

| structure | read by | strain or isolate | mutations | cells | result |
|---|---|---|---|---|---|
| C/C(Cl)=C/COc1cc(NC(=O)c2ccoc2C)ccc1Cl | syncytia | TSAO-m3T-resistant (RT E138K) | RT-E138K | CEM | 7.11 |
| CCc1c(Sc2ccccc2)n(COCc2ccccc2)c(=O)[nH]c1=O | syncytia | IIIB (TIBO 82150) (RT-L100I) | RT-L100I | CEM | 10 |
| Cc1cc(S(N)(=O)=O)ccc1NC(=O)COc1ccc(Cl)cc1C(=O)c1cccc(C#N)n1 | β-galactosidase | HXB2 | RT-L100I | HeLa + HELA CD4+ | ~1 |
| CCc1c(C)[nH]c(=O)c(CC)c1Oc1cc(C)cc(C)c1 | cytopathic effect / MTT |  | RT-L100I | MT-4 | 4 |
| Cc1sccc1C(=S)Nc1ccc(Cl)c(OCC=C(Cl)Cl)c1 | syncytia | HEPT-resistant (RT Y188H) | RT-Y188H | CEM | 286 |
| CC(C)OC(=O)c1cc(NC(=S)OC(C)C)ccc1Cl | syncytia | IIIB | RT-E138K | CEM | 42.8 |
| CCN1c2ncc(CCOc3ccc(C(=O)O)c4c3CCN(C(=O)N(C)C)C4)cc2C(=O)N(C)c2cccnc21 | p24 |  | RT-K103N Y181C | C8166 | 1 |
| Cc1cc(C)cc(Sc2c(C(C)C)c(=O)[nH]c(=S)n2COCCO)c1 | syncytia | IIIB | Nevirapine resistant (RT Y181C) | CEM | 56.7 |
| CCC(=O)c1ccc(F)c([C@@H]2C[C@@H]2NC(=O)Nc2ccc(C#N)cn2)c1O | β-galactosidase / luminescence | LAI | NNRTI-resistant (RT H221Y) | TZM-bl | 1.3 |
| Cc1cc2cn[nH]c2cc1NC(=O)COc1ccc(Cl)cc1C(=O)c1cccc(C#N)c1 | β-galactosidase | HXB2 | RT-V108I | HeLa + HELA CD4+ | ~100 |
| CCN1c2ncc(CCOc3ccc(/C=C(\C)C(=O)O)c4ccccc34)cc2C(=O)Nc2c(C)cc(Cl)nc21 | p24 |  | RT-K103N Y181C | C8166 | 1–10 |
| CCOCn1c(Cc2cc(C)cc(C)c2)c(CC)c(=O)[nH]c1=O | syncytia | IIIB TIBO R82913-resistant (RT K103N) | RT-K103N | CEM | 150 |
| CC(C)=CCOc1cc(NC(=S)c2ccsc2C)ccc1Cl | cytopathic effect / XTT | UC10-resistant (RT Y181C K101E) | RT-Y181C K101E | CEM + CEM-SS | 300 |
| N#Cc1cc(Cl)cc(Oc2c(Br)ccc(CC(=O)Nc3ccc(S(N)(=O)=O)cc3Cl)c2F)c1 |  |  | E138K/Y181I | MT-4 | 2 |
| O=C1Nc2ccc(Cl)cc2[C@@](C#CC2CC2)(C(F)(F)F)N1 |  |  | RT-K103N P225H |  | 44.7 |
| C=C(Cl)COc1cc(NC(=S)c2ccoc2C)ccc1Cl | syncytia | Nevirapine-resistant isolate (RT V106A) | RT-V106A | CEM | 10.9 |
| CCN1c2ncc(CCOc3ccc(CC(C)C(=O)O)c4ccccc34)cc2C(=O)N(C)c2ccc(Cl)nc21 | p24 |  | RT-K103N Y181C | C8166 | 1 |
| CC(C)=CCN1Cc2cccc3[nH]c(=O)n(c23)CC1C | cytopathic effect / XTT | UC040-R (RT-Y181C) | RT-Y181C | CEM + CEM-SS | 20 |
| CCN1c2ncc(CCOc3ccc(NC(=O)CCC(=O)O)c4ccccc34)cc2C(=O)N(C)c2cccnc21 | p24 |  | RT-K103N Y181C | C8166 | 1–10 |
| Cc1cc(S(N)(=O)=O)ccc1NC(=O)COc1ccc(Cl)cc1C(=O)c1cc(Cl)cc(C#N)c1 | β-galactosidase | HXB2 (RT-K103N G190A) Recombinant | RT-K103N G190A | HeLa + HELA CD4+ | ~1 |
| O=C1Nc2ccc(F)c(F)c2[C@@](C#CC2CC2)(C(F)(F)F)N1 |  |  | RT-K103N V108I |  | 22.2 |
| CCc1c(Sc2cc(C)cc(C)c2)n(COCc2ccccc2)c(=S)[nH]c1=O | syncytia | IIIB (TIBO 82150) (RT-L100I) | RT-L100I | CEM | 1.33 |
| CCc1c(C)[nH]c(=O)c(I)c1Oc1cc(C)cc(C)c1 | cytopathic effect / MTT |  | RT-Y188L | MT-4 | 40 |
| COc1ccc(NC(=O)C2=C(C)OCCS2)cc1OCC=C(Cl)Cl | syncytia | TIBO R82150-resistant (RT L100I) | RT-L100I | CEM | 2.5 |
| CCc1c(C)[nH]c(=O)c(Sc2ccccc2)c1Oc1cc(C)cc(C)c1 | cytopathic effect / MTT |  | RT-K103N | MT-4 | 79 |
| CC(C)=CCOc1cc(NC(=S)c2ccoc2C)ccc1Cl | cytopathic effect / XTT | NL4-3 (RT V179D) | RT-V179D | CEM + CEM-SS | 1.33 |
| Cc1cc(S(N)(=O)=O)ccc1NC(=O)COc1ccc(Cl)cc1C(=O)c1cc(F)cc(C#N)c1 | β-galactosidase | HXB2 | RT-P236L | HeLa + HELA CD4+ | ~1 |
| CCc1c(C)[nH]c(=O)c(Br)c1Oc1cc(C)cc(C)c1 | cytopathic effect / MTT |  | RT-Y188L | MT-4 | 32 |
| Cc1occc1C(=O)Nc1ccc(Cl)c(SCC=C(Cl)Cl)c1 | syncytia | TIBO R82150-resistant (RT L100I) | RT-L100I | CEM | 10 |
| CCc1c(C)[nH]c(=O)c(OC)c1Oc1cc(C)cc(C)c1 | cytopathic effect / MTT |  | RT-K103N Y181C | MT-4 | 200 |
| CC1=C(C(=O)Nc2ccc(Cl)c(C(=O)OC(C)C)c2)SCCO1 | syncytia | IIIB | RT-Y188H | CEM | 66.7 |
| CC1=C(C(=O)Nc2ccc(Cl)c(OCC=C(Cl)Cl)c2)SCCO1 | syncytia | TIBO R82150-resistant (RT L100I) | RT-L100I | CEM | 1.67 |
| CCN1c2ncc(CCOc3ccc(C(=O)O)c4c3CCC4)cc2C(=O)N(C)c2ccc(Cl)nc21 | p24 |  | RT-K103N Y181C | C8166 | 1 |
| C[C@H]1CO[C@@H]2Cn3cc(C(=O)NCc4ccc(F)cc4F)c(=O)c(O)c3C(=O)N12 | RT activity | NL4-3 | R263K | CBMC | 2.5 |
| CCc1c(C)[nH]c(=O)c(C(F)(F)F)c1Oc1cc(C)cc(C)c1 | cytopathic effect / MTT |  | RT-L100I | MT-4 | 10 |

A second listing of 3 rows from above:

structure | read by | strain or isolate | mutations | cells | result
CCN1c2ncc(CCOc3ccc(NC(=O)CCC(=O)O)c4ccccc34)cc2C(=O)N(C)c2cccnc21 | p24 |  | RT-K103N Y181C | C8166 | 1–10
CCc1c(C)[nH]c(=O)c(Sc2ccccc2)c1Oc1cc(C)cc(C)c1 | cytopathic effect / MTT |  | RT-K103N | MT-4 | 79
CC(C)=CCN1Cc2cccc3[nH]c(=O)n(c23)CC1C | cytopathic effect / XTT | UC040-R (RT-Y181C) | RT-Y181C | CEM + CEM-SS | 20